This is a selection: effects in other tests are not listed, and their absence says nothing.
Biological target: SARS-CoV-2 NSP3 Mac1 (Severe acute respiratory syndrome coronavirus 2, UniProt P0DTD1)
Conditions: FDA-approved compound library primary screen, single shot

Sodium nitroprusside
NSP3 Mac1 inhibition at 50 µM (%): 46.7%

From PMC9965906, “Discovery and Development Strategies for SARS-CoV-2 NSP3 Macrodomain Inhibitors” (Pathogens, 2023)
